Pooled drug test results. Numbers come from NIAID ChemDB, via PubChem.

Common to all: whole-cell or culture tests; organism: Mycobacterium tuberculosis

Percent inhibition refers to the dose given; in toxicity tests it is the harm to the cells.

smiles | strain or isolate | mutations | cells | read by | measure | tested at | result
C/C=N/NC(=O)c1ccccc1Cl | - | - | - | - | MIC | - | 40 µg/mL
O=C1C2=C(Nc3cc([N+](=O)[O-])ccc3N2)OC1c1ccc(C2OC3=C(Nc4ccc([N+](=O)[O-])cc4N3)C2=O)cc1 | H37Rv | - | - | BACTEC | inhibition | 12.5 µg/mL | 22%
COc1ccc(CCNCCNC[C@]2(C)CCC[C@]3(C)c4ccc(C(C)C)cc4CC[C@@H]23)cc1OC | - | - | - | - | MIC | - | 6.25 µM
N=c1c2n[nH]c([C@@H]3O[C@H](CO)[C@@H](O)[C@H]3O)c2ncn1O | H37Rv | - | - | BACTEC | inhibition | 12.5 µg/mL | -6%
CCCCCCCOc1ccccc1NC(=O)OCCN(C)C | My 331/88 | - | - | - | MIC | - | 16 µM
CC(=O)Oc1ccc(C(=O)O)c(O)c1 | H37Rv | - | - | - | MIC | - | >100 µg/mL
O=[N+]([O-])c1ccc(N/N=C/c2ccc(Cl)c(Cl)c2)nc1 | H37Rv | - | - | BACTEC | inhibition | 12.5 µg/mL | 22%
CN(C)CCC(=O)c1ccc(Cl)cc1 | H37Rv | - | - | - | MIC | - | >100 µg/mL
O=c1[nH]c2ccccc2c(O)c1N=Nc1ccccc1 | H37Rv | - | - | resazurin | MIC | - | <6.25 µg/mL
NCCCCC(NC(=O)OCc1ccccc1)C(=O)NC(CCCCN)C(=O)NC(CCCCN)C(=O)NC(Cc1c[nH]c2ccccc12)C(=O)OCc1ccccc1 | H37Rv | - | - | BACTEC | inhibition | 12.5 µg/mL | 0%
O=c1[nH]c2cc([N+](=O)[O-])ccc2c(O)c1N=Nc1ccc(Cl)c(F)c1 | H37Rv | - | - | resazurin | MIC | - | <6.25 µg/mL
CO[C@H]1/C=C/O[C@@]2(C)Oc3c(C)c(O)c4c(O)c(c(/C=N/N5CCN(C6CCCC6)CC5)c(O)c4c3C2=O)NC(=O)/C(C)=C\C=C\[C@H](C)[C@H](O)[C@@H](C)[C@@H](O)[C@@H](C)[C@H](OC(C)=O)[C@@H]1C | H37Rv | - | - | - | MIC | - | 0.063 µg/mL
O=S(c1ccc(Cl)cc1)c1ccc(Cl)cc1 | H37Rv | - | - | - | MIC | - | >100 µg/mL
O=c1[nH]c(=O)c2[nH]c(=O)n(-c3ccc(Cl)cc3)c2[nH]1 | H37Rv | - | - | BACTEC | MIC bound | - | >12.5 µg/mL
COc1ccccc1NC(=O)OCCN1CCCCC1 | My 331/88 | - | - | - | MIC | - | 1000 µM
CCOC(=O)C1C(C)NC(C)C(C(=O)OCC)C1OC(=O)c1ccccc1.Cl | H37Rv | - | - | - | MIC | - | 100 µg/mL
CCNC(=S)N=Nc1c(O)[nH]c2ccc(C)cc12 | H37Rv | - | - | broth dilution / resazurin | EC90 | - | >100 µg/mL
COc1ccccc1CCNCCNCCC(c1ccccc1)c1ccccc1 | - | - | - | - | MIC | - | 12.5 µM
Cc1ccc(Nc2ccc(Nc3ccc(C)c(S(=O)(=O)[O-])c3)c3c2C(=O)c2c(O)ccc(O)c2C3=O)cc1S(=O)(=O)[O-].[Na+].[Na+] | H37Rv | - | - | - | MIC | - | 25 µg/mL
CCCCCCCCCCCNCCN[C@@H](C)C1CCCCC1 | - | - | - | - | MIC | - | 25 µM
Oc1[nH]c2ccc(OC(F)(F)F)cc2c1N=NC(=S)Nc1ccccc1 | H37Rv | - | - | broth dilution / resazurin | EC50 | - | 14.2 µg/mL
O=C(N/N=C/c1cccs1)c1ccc(F)cc1 | H37Rv | - | - | - | MIC | - | >6.25 µg/mL
O=C1CC2(C(=O)O1)C1C(=O)OC(=O)C1C1c3ccccc3C=NN12 | H37Rv | - | - | BACTEC | MIC bound | - | >12.5 µg/mL
CCCCOc1ccccc1NC(=O)OCC[NH+]1CCCC1 | My 331/88 | - | - | - | MIC | - | 500 µM
O=C(O)c1ccc(Br)cc1 | H37Rv | - | - | - | MIC | - | 100 µg/mL
O=C(N/N=C/c1ccc([N+](=O)[O-])s1)c1ccc(Cl)cc1 | H37Rv | - | - | - | MIC | - | <6.25 µg/mL
CC(CO)CC[C@H](O)[C@](C)(O)[C@H]1CC[C@@]2(O)C3=CC(=O)[C@@H]4C[C@@H](O)[C@@H](O)C[C@]4(C)[C@H]3CC[C@]12C | H37Rv | - | - | BACTEC | inhibition | 12.5 µg/mL | 19%
Nc1c(S(=O)(=O)[O-])cc2c(c1Br)C(=O)c1ccccc1C2=O.[Na+] | H37Rv | - | - | - | MIC | - | >100 µg/mL
NCC(=O)NN | - | - | - | - | MIC | - | <40 µg/mL
Cc1cc(-c2cc3c(cc2F)c(=O)c(C(=O)O)cn3C2CC2)cc(C)n1 | 1620-6 | - | - | - | MIC | - | 0.25 µg/mL
C[C@@H]1CN(c2c(F)c(N)c3c(=O)c(C(=O)O)cn(C4CC4)c3c2F)C[C@H](C)N1 | MDR-22 (MDR) | - | - | - | MIC | - | <0.1 µg/mL
COc1ccc(N=Nc2c(O)c3cccc([N+](=O)[O-])c3[nH]c2=O)cc1 | H37Rv | - | - | resazurin | inhibition | 6.25 µg/mL | 37%
CCCCCCCCCOc1cccc(NC(=O)OCCN2CCOCC2)c1 | My 331/88 | - | - | - | MIC | - | 32 µM
O=[N+]([O-])[N-]S(=O)(=O)c1ccccc1.[K+] | H37Rv | - | - | - | MIC | - | >100 µg/mL
O=C(N/N=C/c1ccc(F)cc1)c1ccc(F)cc1 | H37Rv | - | - | - | MIC | - | >6.25 µg/mL
CC(C)c1cc2c(O)c(c1)Cc1cc(C(C)C)cc(c1O)Cc1cc(C(C)C)cc(c1O)Cc1cc(C(C)C)cc(c1O)C2 | H37Rv | - | - | BACTEC | inhibition | 12.5 µg/mL | -3%
O=C(CN1CCN(c2cc3c(cc2F)c(=O)c(C(=O)O)cn3C2CC2)CC1)c1ccccc1 | H37Rv | - | VERO | - | inhibition | 3.68 µg/mL | 90%
CCCCCCCCCOc1ccc(NC(=O)OCCN2CCCCC2)cc1 | My 331/88 | - | - | - | MIC | - | 8 µM
COc1ccc(N)cc1OC | H37Rv | - | - | - | MIC | - | 25 µg/mL
CCCCCNCCNC1(C)CN(CC(CC)CCCC)CN(CC(CC)CCCC)C1 | - | - | - | - | MIC | - | 50 µM
Cl.NCCCCC1CCCNC1 | H37Rv | - | - | - | MIC | - | >100 µg/mL
Cc1ccc2[nH]c(O)c(N=NC(=S)Nc3ccccc3Br)c2c1 | H37Rv | - | - | broth dilution / resazurin | EC90 | - | >100 µg/mL
COc1ccc(OC)c(CCNCCN[C@H]2C[C@H]3CC[C@]2(C)C3(C)C)c1 | - | - | - | - | MIC | - | 25 µM
O=C(O)c1ccccc1C(=O)c1ccc(O)c([N+](=O)[O-])c1 | H37Rv | - | - | - | MIC | - | >100 µg/mL
CCC(C(=O)OC)C1CCN(C)C(=O)C12CO2 | H37Rv | - | - | resazurin | MIC bound | - | >6.25 µg/mL
CCOc1ccc(NC(=O)OCC[NH+]2CCCC2)cc1 | My 331/88 | - | - | - | MIC | - | 1000 µM
O=C1c2c(O)cccc2-c2nn(CCNCCO)c3ccc(NCCNCCO)c1c23 | H37Rv | - | VERO | BACTEC | MIC | - | 6.25 µg/mL
CC(C)c1ccc2c(c1)CC[C@H]1[C@](C)(CNCCNCCc3ccc(O)c(O)c3)CCC[C@]21C | - | - | - | - | MIC | - | 50 µM
CCCCCCCCCCCCNC(=O)c1cccnc1 | H37Rv | - | - | - | MIC | - | 100 µg/mL
Cc1ncc([N+](=O)[O-])n1CCOc1c(Cl)cc(Cl)cc1CN(C)C1CCCCC1 | H37Rv | - | - | resazurin | MIC bound | - | >6.25 µg/mL
CCCCC(CC)CN1CN(CC(CC)CCCC)CC(C)(NCCNCCc2ccccc2)C1 | - | - | - | - | MIC | - | 6.25 µM
CCn1cc(C(=O)O)c(=O)c2cc(F)c(N3CCN(CC(=O)c4ccccc4)CC3)nc21 | H37Rv | - | - | - | EC50 | - | <6.25 µg/mL
Oc1c(N=NC(=S)Nc2ccc(F)cc2)c2cc(OC(F)(F)F)ccc2n1CN1CCOCC1 | H37Rv | - | - | broth dilution / resazurin | EC50 | - | 2.329 µg/mL
O=C(CN1CCN(c2cc3c(cc2F)c(=O)c(C(=O)O)cn3C2CC2)CC1)c1ccc(F)cc1 | H37Rv | - | VERO | - | MIC | - | 0.78 µg/mL
Cc1ccc(NC(=S)N=Nc2c(O)[nH]c3ccc(OC(F)(F)F)cc23)cc1 | H37Rv | - | - | broth dilution / resazurin | EC50 | - | 3.472 µg/mL
O=CNC12C(=O)NC(=O)C1(C(=O)O)C21CCCCC1 | H37Rv | - | - | BACTEC | inhibition | 12.5 µg/mL | 36%
CCn1cc(C(=O)O)c(=O)c2cc(F)c(N3CCN(C/C(=N/O)c4ccccc4)CC3)cc21 | H37Rv | - | - | - | EC50 | - | >6.25 µg/mL
CC[C@H]1OC(=O)[C@H](C)[C@@H](O[C@H]2C[C@@](C)(OC)[C@@H](O)[C@H](C)O2)[C@H](C)[C@@H](O[C@@H]2O[C@H](C)C[C@H](N(C)C)[C@H]2O)[C@](C)(OC)C[C@@H](C)C(=O)[C@H](C)[C@@H](O)[C@]1(C)O | S-2M (susceptible) | - | - | - | MIC | - | >8 µg/mL
O=C(N/N=C/c1ccc([N+](=O)[O-])s1)c1ccc([N+](=O)[O-])cc1 | H37Rv | - | - | - | MIC | - | <6.25 µg/mL
CCCOc1ccccc1NC(=O)OCCN1CCCCC1 | My 331/88 | - | - | - | MIC | - | 250 µM
CCCCNC(=S)N=Nc1c(O)n(C)c2ccc(C)cc12 | H37Rv | - | - | broth dilution / resazurin | EC50 | - | >100 µg/mL
C[N+](C)(CCCCCCCCCCOc1ccccc1)CCCCCCCCCCOc1ccccc1.[Br-] | H37Rv | - | - | - | MIC | - | >100 µg/mL
CN(C)c1ccc2nc3ccc(=O)cc-3sc2c1 | H37Rv | - | - | BACTEC | MIC | - | 0.39 µg/mL
CCCC(C)c1ccc(Nc2ccc3c4c2C(=O)c2ccccc2-c4c(C(=O)OCC)c(=O)n3C)c(S(=O)(=O)O)c1.N | H37Rv | - | - | - | MIC | - | 50 µg/mL
CN(C)c1cc2nc3ccccc3nc2cc1O | H37Rv | - | - | BACTEC | MIC bound | - | ≤12.5 µg/mL
Cl.O=C(c1cnc2ccccc2c1)N1CCCCC1 | H37Rv | - | - | - | MIC | - | >100 µg/mL
Cc1cc(-c2ccc(N=Nc3ccc4c(S(=O)(=O)O)cc(S(=O)(=O)O)c(N)c4c3O)c(C)c2)ccc1N=Nc1ccc2c(S(=O)(=O)O)cc(S(=O)(=O)O)c(N)c2c1O | H37Rv | - | - | BACTEC | MIC bound | - | >12.5 µg/mL
O=C(Oc1ccc(Cl)cc1)c1ccccc1O | H37Rv | - | - | - | MIC | - | >100 µg/mL
Clc1cc(Cl)c2ns[s+]c2c1Cl.[Cl-] | H37Rv | - | - | BACTEC | MIC bound | - | >6.25 µg/mL
COc1cc(-c2ccc(N)c(OC)c2)ccc1N | H37Rv | - | - | - | MIC | - | >100 µg/mL
COc1ccc2c(ccc3oc([N+](=O)[O-])cc32)c1 | H37Rv | - | - | resazurin | MIC | - | 0.1 µg/mL
O=C(Nc1ccccn1)c1ccccc1O | H37Rv | - | - | - | MIC | - | >100 µg/mL
CC(O)(c1ccncc1)c1cc2ccccc2[nH]1 | H37Rv | - | - | - | inhibition | 6.25 µg/mL | 8%
O=c1[nH]c2cc([N+](=O)[O-])ccc2c(O)c1N=Nc1ccc(F)cc1 | H37Rv | - | - | resazurin | inhibition | 6.25 µg/mL | 100%
O=C(N/N=C/c1ccccc1Cl)c1ccccc1 | - | - | - | - | MIC | - | 10 µg/mL
CCOC(=O)c1c(C(=O)Nc2ccccc2)c(-c2ccccc2)n(NC(=O)c2cccc(Cl)c2)c1C | H37Rv | - | - | BACTEC | MIC bound | - | >12.5 µg/mL
O=C(O)C(CCCCNc1ccc([N+](=O)[O-])cc1[N+](=O)[O-])Nc1ccc([N+](=O)[O-])cc1[N+](=O)[O-] | H37Rv | - | - | - | MIC | - | 25 µg/mL
O=C(N/N=C/c1ccco1)c1ccc(NS(=O)(=O)c2ccccc2)cc1 | - | - | - | - | MIC | - | >200 µg/mL
NNC(=O)c1ccncc1 | FJ05195 | Extensively drug-resistant | - | resazurin | MIC | - | >256 µg/mL
C1CC[N+]2(CC1)CCCCC2.NC(=S)[S-] | H37Rv | - | - | - | MIC | - | 12.5 µg/mL
CCC(C)(C)c1ccc(Oc2ccc(C(=O)N=C3CC(=O)NN3c3ccccc3)cc2)cc1 | H37Rv | - | - | - | MIC | - | >100 µg/mL
O=c1[nH]c2cc(Cl)ccc2c(O)c1N=Nc1cccc(Cl)c1 | H37Rv | - | - | resazurin | inhibition | 6.25 µg/mL | 47%
CC(NCCNC1CCCCCCC1)c1cccc2ccccc12 | - | - | - | - | MIC | - | 25 µM
CCCCCCC(O)C/C=C\CCCCCCCC(=O)N/N=C/c1ccccc1 | - | - | - | - | MIC | - | >200 µg/mL
Cc1cccc2c(O)c(N=Nc3cccc(Cl)c3)c(=O)[nH]c12 | H37Rv | - | - | resazurin | inhibition | 6.25 µg/mL | 39%
CCOc1ccccc1NC(=O)OCCN1CCCCC1 | My 331/88 | - | - | - | MIC | - | >1000 µM

Repeating the first 8 entries:

smiles | strain or isolate | mutations | cells | read by | measure | tested at | result
C/C=N/NC(=O)c1ccccc1Cl | - | - | - | - | MIC | - | 40 µg/mL
O=C1C2=C(Nc3cc([N+](=O)[O-])ccc3N2)OC1c1ccc(C2OC3=C(Nc4ccc([N+](=O)[O-])cc4N3)C2=O)cc1 | H37Rv | - | - | BACTEC | inhibition | 12.5 µg/mL | 22%
COc1ccc(CCNCCNC[C@]2(C)CCC[C@]3(C)c4ccc(C(C)C)cc4CC[C@@H]23)cc1OC | - | - | - | - | MIC | - | 6.25 µM
N=c1c2n[nH]c([C@@H]3O[C@H](CO)[C@@H](O)[C@H]3O)c2ncn1O | H37Rv | - | - | BACTEC | inhibition | 12.5 µg/mL | -6%
CCCCCCCOc1ccccc1NC(=O)OCCN(C)C | My 331/88 | - | - | - | MIC | - | 16 µM
CC(=O)Oc1ccc(C(=O)O)c(O)c1 | H37Rv | - | - | - | MIC | - | >100 µg/mL
O=[N+]([O-])c1ccc(N/N=C/c2ccc(Cl)c(Cl)c2)nc1 | H37Rv | - | - | BACTEC | inhibition | 12.5 µg/mL | 22%
CN(C)CCC(=O)c1ccc(Cl)cc1 | H37Rv | - | - | - | MIC | - | >100 µg/mL

MIC bound comes from a single tested concentration. Rows are shuffled and stem from different studies. Blank or dashed fields: not listed here. ECn is the concentration giving n% inhibition of infection, replication or growth.